## Mutational interference map of HIV-1 RNA dimerization

Reference: Ye et al. 2022, doi:10.1038/s41594-022-00746-2.

The 5' region of HIV-1 NL4-3 RNA (positions 1-437):
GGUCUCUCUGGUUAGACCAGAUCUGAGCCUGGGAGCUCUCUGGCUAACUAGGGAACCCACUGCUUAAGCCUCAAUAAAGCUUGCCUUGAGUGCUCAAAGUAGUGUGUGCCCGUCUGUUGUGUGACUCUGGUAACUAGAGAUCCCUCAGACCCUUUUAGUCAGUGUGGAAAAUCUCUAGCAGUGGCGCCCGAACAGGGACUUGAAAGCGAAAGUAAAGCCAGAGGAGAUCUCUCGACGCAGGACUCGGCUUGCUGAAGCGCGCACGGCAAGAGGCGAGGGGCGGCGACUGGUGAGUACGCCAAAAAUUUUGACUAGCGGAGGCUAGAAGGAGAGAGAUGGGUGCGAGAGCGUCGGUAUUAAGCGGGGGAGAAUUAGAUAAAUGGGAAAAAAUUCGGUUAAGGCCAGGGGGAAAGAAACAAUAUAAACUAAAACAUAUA

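Randomly mutated transcripts starting with one, two or three G (1G, 2G, 3G), capped or uncapped, were folded for 30 min at 37 °C. High salt was 300 mM KCl and 5 mM MgCl2, low salt 40 mM KCl and 0.1 mM MgCl2; monomer and dimer were parted on a native gel. Mutation frequencies in the two bands give Kdimer.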

Values are log2 Kdimer, the median over the changes at each position: higher means that changes there hinder dimer formation, below 0 that they favour it. Sample: 3G capped low-salt. One numbering serves 1G, 2G and 3G. A position is written with its base where known.

C38 (domain TAR) read -0.01.
A54 (domain TAR) read -0.52.
U100 (domain PolyA) read 0.21.
U115 read 0.54.
U117 read -0.17.
U126 (domain PAS) read 0.86.
G129 (domain PAS) read 1.10.
A136 (domain PBS) read -0.16.
C160 (domain PBS) read -0.36.
C189 (domain PBS) read 0.30.
A192 (domain PBS) read 0.26.
C207 (domain PBS) read -0.42.
A214 (domain PBS) read 0.04.
A227 (domain CU) read 1.39.
G234 read 0.29.
U253 (domain SL1) read 2.65.
C260 (domain SL1) read 3.66.
A269 (domain SL1) read 1.70.
G270 (domain SL1) read 1.04.
C284 (domain SL2) read 0.22.
G298 (domain SL2) read -0.49.
A311 read 0.34.
A332 read 0.59.
C349 read 0.06.
U351 read 0.10.
C362 read 0.39.
G375 read 0.01.
G384 read -0.06.
A385 read -0.06.
A388 read 0.08.
U391 read 0.23.
G405 read -0.08.
A421 read 0.03.
U422 read 0.06.
A425 read 0.14.
position 442 read 0.22.
position 488 read 0.03.
position 503 read -0.03.
position 506 read 0.15.
position 507 read -0.06.

Extract of 4 entries:

* A214 (domain PBS) = 0.04
* position 507 = -0.06
* C38 (domain TAR) = -0.01
* position 442 = 0.22

Bases beyond 437 are not listed in the source.